Results published in PubChem BioAssay AID1159583 (ICCB-Longwood Screening Facility, Harvard Medical School, 2016).
The entries are a selection whose mix differs from that of the whole data set. Activity calls are given as the source filed them. Rule as the data show it: active = fluorescence inhibition mostly above about 23% (no sharp cut-off); inactive = mostly below about 17%.

Experiment: hypoxia reporter signal reduction in M. tuberculosis – fluorescence, absorbance growth readout, primary screen (AID 1159583)
Settings: M. tuberculosis hypoxia-regulated fluorescent reporter, hits give high values, concentration not given here

SMILES	fluorescence inhibition
COc1ccccc1OP(=O)(Nc1ccc(C)cn1)Oc1ccccc1OC	inactive: 2.47%
COc1ccc(OP(C)(=O)Nc2ccccn2)cc1 (stereo not drawn)	inactive: -2.68%
CN1CCCC(OC(=O)C(c2ccccc2)c2ccccc2)C1 (stereo not drawn)	inactive: -0.423%
CN(C)CCOC(=O)C(O)(c1ccccc1)C1CCCC1 (stereo not drawn)	inactive: 16.5%
Clc1ccc(Cl)c(NC2=NCC(CBr)S2)c1 (stereo not drawn)	inactive: 0.369%
NC(=O)c1cc([N+](=O)[O-])cc([N+](=O)[O-])c1N	inactive: 5.08%
COc1ccccc1OP(C)(=O)Nc1ccc(Br)cc1 (stereo not drawn)	inactive: 16%
CC(=O)Nc1ccc(Oc2c([N+](=O)[O-])cc([N+](=O)[O-])cc2[N+](=O)[O-])cc1	inactive: 6.1%
CC(=O)Nc1ccc([As](=O)(O)O)c(O)c1	inactive: 5.95%
O=C(OC1CN2CCC1CC2)c1ccc([N+](=O)[O-])cc1 (stereo not drawn)	inactive: 6.69%
CC(=O)c1ccc(N2CC2c2ccncc2)cc1 (stereo not drawn)	inactive: 8.46%
O=C(OCCN1CCN(CCOCc2ccccc2)CC1)C(O)(c1ccccc1)c1ccccc1	inactive: 7.75%
Cc1ccccc1CN(C)C(=O)COC(=O)C(O)(c1ccccc1)c1ccccc1	inactive: -10.7%
CP(=O)(Nc1ccccc1F)Oc1ccccc1 (stereo not drawn)	inactive: 3.56%
CCc1cc(O)c([N+](=O)[O-])c(C)c1[N+](=O)[O-]	inactive: 9.52%
CC(C)(C)C(=O)NC(Sc1ccccc1)C(Cl)(Cl)Cl (stereo not drawn)	inactive: 3.58%
CN(C(=O)Cc1ccccc1)C1CC[C@]2(CCCO2)CC1N1CCCC1 (stereo partly drawn)	inactive: 8.6%
CCOc1ccc(C2=NCC(CBr)S2)cc1 (stereo not drawn)	inactive: 0.572%
O=P1(Nc2nc3ccc(Cl)cc3s2)COc2ccccc2O1 (stereo not drawn)	inactive: 4.17%
CP(=O)(Nc1ccccc1)Oc1ccc(F)cc1 (stereo not drawn)	inactive: 5.66%
O=[N+]([O-])c1cc([N+](=O)[O-])c(OC2CCCCC2O)c([N+](=O)[O-])c1 (stereo not drawn)	inactive: -13.5%
O=c1c2cc([N+](=O)[O-])ccc2[nH]c2c([N+](=O)[O-])cc([N+](=O)[O-])cc12	inactive: 30.8%
CN(C)C(=O)Oc1noc2ccccc12	inactive: 8.15%
CC(NC(=O)COC(=O)C(O)(c1ccccc1)c1ccccc1)c1ccccc1 (stereo not drawn)	inactive: -1.65%

SMILES	fluorescence inhibition
Cc1ccccc1OP(=O)(Nc1ccccn1)Oc1ccccc1C	inactive: 4.4%
CC(=O)NC(SC(=S)N(CC(C)C)CC(C)C)C(Cl)(Cl)Cl (stereo not drawn)	inactive: -5.83%
Cc1ccc(OP(=O)(Nc2ccccn2)Oc2ccc(C)cc2)cc1	inactive: -15.4%
COC(=O)c1cc2c(s1)N=C(c1ccccc1)N(C)P2(=O)N1CCOCC1 (stereo not drawn)	inactive: 2.53%
Cc1c([N+](=O)[O-])cc([N+](=O)[O-])c(Br)c1[N+](=O)[O-]	inactive: -2.86%
CCC(=O)N1C2C3N(C(=O)CC)C1C1N(C(=O)CC)C(C(N1C(=O)CC)N3C(=O)CC)N2C(=O)CC	inactive: 2.85%
CC1OP(=O)(Oc2ccccc2)CC2OC12 (stereo not drawn)	inactive: -0.938%
CCN(CC)CCCOC(=O)C(O)(c1ccccc1)C1CCCCC1 (stereo not drawn)	inactive: 9.25%
O=C(OC1CN2CCC1CC2)c1ccccc1 (stereo not drawn)	inactive: 6.62%
CCOC(=O)c1ccc(NP(C)(=O)Oc2ccc(F)cc2)cc1 (stereo not drawn)	inactive: 5.62%
O=P1(N(CCCl)CCCl)OCCC2CCCCN21 (stereo not drawn)	inactive: 3.27%
COc1ccc(OP(C)(=O)Nc2ccc(SC(F)(F)F)cc2)cc1 (stereo not drawn)	inactive: -4.83%
O=C(NC1CCS(=O)(=O)C1)NP(=S)(Oc1ccccc1)Oc1ccccc1 (stereo not drawn)	inactive: 6.09%
Cc1ccc(NP(=O)(Oc2cccc(C)c2)Oc2cccc(C)c2)nc1	inactive: -6.14%
c1ccc(-c2nn[nH]n2)c(-c2nn[nH]n2)c1	inactive: 13.7%
Nc1ccc([As](=O)(O)c2ccc([N+](=O)[O-])cc2)cc1	inactive: 22.9%
Cc1c(C(c2ccc3c(c2)OCO3)c2c(C)n(C)n(-c3ccccc3)c2=O)c(=O)n(-c2ccccc2)n1C.O=[N+]([O-])c1cc([N+](=O)[O-])c(O)c([N+](=O)[O-])c1	inactive: -8.78%
O=[N+]([O-])c1ccc(O)c(C=NNc2ccc([N+](=O)[O-])cc2[N+](=O)[O-])c1	inactive: 20.9%
O=C(OC1CN2CCC1CC2)c1cccc(Cl)c1 (stereo not drawn)	inactive: -2.95%
O=[N+]([O-])c1ccc(OP2(=O)COCCO2)cc1 (stereo not drawn)	inactive: 8.16%
CC(=O)NC(SC(=S)N(C)C)C(Cl)(Cl)Cl (stereo not drawn)	inactive: 63.1%
O=[N+]([O-])c1ncn(CCn2cnc([N+](=O)[O-])n2)n1	inactive: 5.27%
CN(C(=O)Cc1ccc(Cl)c(Cl)c1)C1CC[C@@]2(CCCO2)CC1N1CCCC1 (stereo partly drawn)	inactive: 2.32%
Cc1cc(-c2cccc3ccccc23)c(C)cn1.O=[N+]([O-])c1cc([N+](=O)[O-])c(O)c([N+](=O)[O-])c1	inactive: -1.45%
